Data from PMC2891834 (PLoS Pathogens, 2010).

Molecular target: NleG5-1[[…]] (E. coli O157:H7 strain Sakai)
Assay: fluorescence polarisation
Settings: both partners purified

Binder	Kd
UBE2D2 R5A, labelled with fluorescein-5-maleimide (enzyme, labelled with fluorescein-5-maleimide (site not stated), also called UBE2D2 R5A variant; source: E. coli BL21-Gold (DE3), purified (Ni-NTA), then labelled) not shown	326 ± 35 µM
UBE2D2 K63A, labelled with fluorescein-5-maleimide (enzyme, labelled with fluorescein-5-maleimide (site not stated), also called UBE2D2 K63A variant; source: E. coli BL21-Gold (DE3), purified (Ni-NTA), then labelled) not shown	213 ± 9 µM
UBE2D2 F62A, labelled with fluorescein-5-maleimide (enzyme, labelled with fluorescein-5-maleimide (site not stated), also called UBE2D2 F62A variant; source: E. coli BL21-Gold (DE3), purified (Ni-NTA), then labelled) not shown	36 ± 2 µM
